Measured values from several laboratories, pooled; numbers as filed in NIAID ChemDB.

Shared fields: enzyme or target tests

An empty or dashed field is not shown.

compound | organism | strain | protein | read-out | tested at | value
COC(=O)[C@H](Cc1cn(C)c2ccc(OCC(=O)O)cc12)NC(=O)c1ccc2c(c1)nc(-c1ccoc1)n2C1CCCCC1 | Poliovirus | - | RNA-dependent RNA polymerase | IC50 | - | >25 µM
CC(=O)NC(C(=O)N1CCOCC1)[C@H]1CC(C(=O)O)C[C@@H]1N=C(N)N | Influenza A virus (H6N2) | - | Neuraminidase | IC50 | - | 0.04 µM
O=C(N[C@@H](Cc1c[nH]c2ccc(O)cc12)C(=O)O)c1ccc2c(c1)nc(-c1cccc3c1OCO3)n2C1CCCCC1 | Poliovirus | - | RNA-dependent RNA polymerase | IC50 | - | >25 µM
CCC(COC)NC(=O)C(NC(C)=O)[C@H]1CC(C(=O)O)C[C@@H]1N=C(N)N | Influenza A virus (H6N2) | - | Neuraminidase | IC50 | - | 2.2 µM
CCCC(CCC)Oc1cc(C(=O)O)ccc1NC(C)=O | Influenza A virus | H1N9 | Neuraminidase | IC50 | - | 230 µM
O=C(O)c1ccc2c(c1)nc(-c1cc(Br)cs1)n2C1CCCCC1 | Poliovirus | - | RNA-dependent RNA polymerase | IC50 | - | >25 µM
Nc1ncnc2c1ncn2[C@@H]1O[C@H](COC(=O)c2ccc(S(=O)(=O)F)cc2)[C@@H](O)[C@H]1O | Japanese encephalitis virus | - | NTPase/helicase | inhibition | 300 µM | 29%
CC(C)=Cc1nc2cc(C(=O)O)ccc2n1C1CCCCC1 | Poliovirus | - | RNA-dependent RNA polymerase | IC50 | - | >25 µM
CC(=O)Nc1c(O)cc(C(=O)O)cc1[N+](=O)[O-] | Influenza A virus | N2 (A/TOKYO/67) | Neuraminidase | IC50 | - | 750 µM
CC(=O)NC(C(=O)N(C)C(C)C)[C@H]1CC(C(=O)O)C[C@@H]1N=C(N)N | Influenza A virus (H6N2) | - | Neuraminidase | IC50 | - | 3.21 µM
CCC(CC)C(=O)Nc1cc(C(=O)O)ccc1NC(C)=O | Influenza A virus | H1N9 | Neuraminidase | IC50 | - | 27 µM
O=C(OC[C@H]1O[C@@H](n2cnc3c(=O)[nH]cnc32)[C@H](O)[C@@H]1O)c1ccc(S(=O)(=O)F)cc1 | Japanese encephalitis virus | - | NTPase/helicase | inhibition | 300 µM | <0.5%
COC(=O)C1c2cc3c(c(O)c2C(O)CC1(C)O)C(=O)c1c(O)cc2c(c1C3=O)OC1OC2(C)C(O)C(N(C)C)C1O | Japanese encephalitis virus | - | NTPase/helicase | IC50 | - | 3.8 µM
C=CCNC(=O)C(NC(C)=O)[C@H]1CC(C(=O)O)C[C@@H]1N=C(N)N | Influenza A virus (H6N2) | - | Neuraminidase | IC50 | - | 0.72 µM
O=C(N[C@@H](Cc1c[nH]c2ccc(O)cc12)C(=O)O)c1ccc2c(c1)nc(-c1ccsc1)n2C1CCCCC1 | Poliovirus | - | RNA-dependent RNA polymerase | IC50 | - | >25 µM

Repeating the final 2 entries:

| compound | organism | strain | protein | read-out | tested at | value |
|---|---|---|---|---|---|---|
| C=CCNC(=O)C(NC(C)=O)[C@H]1CC(C(=O)O)C[C@@H]1N=C(N)N | Influenza A virus (H6N2) | - | Neuraminidase | IC50 | - | 0.72 µM |
| O=C(N[C@@H](Cc1c[nH]c2ccc(O)cc12)C(=O)O)c1ccc2c(c1)nc(-c1ccsc1)n2C1CCCCC1 | Poliovirus | - | RNA-dependent RNA polymerase | IC50 | - | >25 µM |

Percent inhibition refers to the dose given; in toxicity tests it is the harm to the cells. Conditions beyond the fields shown may differ between rows. ICn is the concentration giving n% inhibition.